Measured values reported in PubChem BioAssay AID1085 (Emory University Molecular Libraries Screening Center, 2008).
The list shows a part of the results, in another mix than the full data. Activity calls are given as the source filed them. Rule as the data show it: active = inhibition above about 50%; inactive = the rest.

Amino acid sequences for entries named in this document (tags omitted). A change or cut given only in a name is not applied to a line headed by its entry.
UniProt Q1HVG2: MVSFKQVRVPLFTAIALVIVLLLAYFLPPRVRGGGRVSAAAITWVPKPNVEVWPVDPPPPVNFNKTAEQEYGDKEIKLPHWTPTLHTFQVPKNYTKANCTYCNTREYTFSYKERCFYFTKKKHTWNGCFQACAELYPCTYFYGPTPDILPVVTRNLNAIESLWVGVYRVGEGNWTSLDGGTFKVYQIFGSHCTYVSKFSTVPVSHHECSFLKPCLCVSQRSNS

The molecules below were run against Glycoprotein 42 (Epstein-Barr virus (strain AG876)) (UniProt Q1HVG2) (assay: EBV glycoprotein 42 binding blockers – biochemical, uHTS, fluorescence polarization, primary screen (AID 1085)). Conditions: Fluorescence polarization binding assay, mP read-out; stronger effect = higher value; tested at 21.74 µM.
In the case of `O=c1c2cc([N+](=O)[O-])ccc2[nH]c2c([N+](=O)[O-])cc([N+](=O)[O-])cc12`, the inhibition is reported as inactive: -2.38%.
For `CN(C)C(=O)Oc1noc2ccccc12`, the inhibition was inactive: -5.71%.
In the case of `CC(=O)NC(SC(=S)N(CC(C)C)CC(C)C)C(Cl)(Cl)Cl` (centres undefined), the inhibition is reported as inactive: 1.35%.
`Cc1ccc(OP(=O)(Nc2ccccn2)Oc2ccc(C)cc2)cc1` was tested, and the inhibition was inactive: -16.6%.
`CCC(=O)N1C2C3N(C(=O)CC)C1C1N(C(=O)CC)C(C(N1C(=O)CC)N3C(=O)CC)N2C(=O)CC` was tested, and the inhibition was inactive: -15.9%.
For `CC(C)(C)C(=O)NC(Sc1ccccc1)C(Cl)(Cl)Cl` (centres undefined), the inhibition was inactive: -9.38%.
In the case of `O=P1(Nc2nc3ccc(Cl)cc3s2)COc2ccccc2O1` (centres undefined), the inhibition is reported as inactive: -20%.
`CCOc1ccc(C2=NCC(CBr)S2)cc1` (centres undefined) was tested, and the inhibition was inactive: -9.69%.
In the case of `CC(=O)Nc1ccc([As](=O)(O)O)c(O)c1`, the inhibition is reported as inactive: -4.61%.
In the case of `CC(=O)Nc1ccc(Oc2c([N+](=O)[O-])cc([N+](=O)[O-])cc2[N+](=O)[O-])cc1`, the inhibition is reported as inactive: 5.01%.
`C[C@H]1OP(=O)(Oc2ccccc2)C[C@@H]2O[C@@H]21` (some centres undefined) was tested, and the inhibition was inactive: -18.8%.
For `C[C@@H]1C=CCP(=O)(Oc2ccccc2)O1` (some centres undefined), the inhibition was inactive: -11.7%.
`c1nnnn1CCn1cnnn1` was tested, and the inhibition was inactive: -3.23%.
With `CC(C)C(=O)NC(Sc1ccccc1)C(Cl)(Cl)Cl` (centres undefined) the inhibition was inactive: 6.82%.
For `O=P(Nc1nccs1)(c1ccccc1)c1ccccc1`, the inhibition was inactive: -2.68%.
In the case of `O=P(Nc1nc2ccccc2s1)(c1ccccc1)c1ccccc1`, the inhibition is reported as inactive: -12.5%.
`C[C@H]1OP(=O)(Oc2ccccc2)[C@H](O)[C@H](O)[C@H]1N=[N+]=[N-]` (some centres undefined) was tested, and the inhibition was inactive: -9.22%.
`O=P(Nc1ccccn1)(c1ccc(Br)cc1)c1ccc(Br)cc1` was tested, and the inhibition was inactive: 11.3%.
`C(Cc1nn[nH]n1)Cc1nn[nH]n1` was tested, and the inhibition was inactive: -13.5%.
With `Nc1ccc([As](=O)(O)c2ccc([N+](=O)[O-])cc2)cc1` the inhibition was inactive: -12.8%.
In the case of `O=C(OC1CN2CCC1CC2)c1cccc(Cl)c1` (centres undefined), the inhibition is reported as inactive: -11.4%.
For `CC(=O)NC(SC(=S)N(C)C)C(Cl)(Cl)Cl` (centres undefined), the inhibition was inactive: -7.09%.
For `O=[N+]([O-])c1ncn(CCn2cnc([N+](=O)[O-])n2)n1`, the inhibition was inactive: -1.28%.
With `O=[As](O)(c1ccccc1)c1ccc(O)cc1` the inhibition was inactive: 1.74%.
